Series [1] has as its target T1, H-NS (Salmonella enterica serovar Typhimurium ATCC 14028) (UniProt P0A1S2).
T1 sequence (looked up): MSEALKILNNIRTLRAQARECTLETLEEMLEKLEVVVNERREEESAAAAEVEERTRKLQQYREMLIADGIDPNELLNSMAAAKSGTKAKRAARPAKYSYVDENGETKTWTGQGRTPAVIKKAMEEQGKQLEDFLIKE
The experiment in a line: SPR. The following applies: range over six promoters; SPR: streptavidin chip with biotinylated dsDNA, +/-20 uM cAMP for CRP, active protein concentration by CFCA; SPR buffer, pH and temperature not given; recombinant protein; residues 1-137; label: biotin; probe letters rebuilt from the primers and the genome.

The chains behind the UniProt entries cited, without tags or fusion partners. Where a name states a change or a piece, a line headed by the entry shows the natural chain unless it says otherwise.
UniProt P0A2T6: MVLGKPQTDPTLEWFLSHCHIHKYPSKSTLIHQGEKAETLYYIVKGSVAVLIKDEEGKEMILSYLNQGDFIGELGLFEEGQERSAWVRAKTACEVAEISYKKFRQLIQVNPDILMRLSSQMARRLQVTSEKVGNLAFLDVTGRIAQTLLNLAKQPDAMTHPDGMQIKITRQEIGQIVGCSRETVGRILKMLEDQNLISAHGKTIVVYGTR

Series [2] addresses CRP (Salmonella enterica serovar Typhimurium ATCC 14028) (UniProt P0A2T6). The experiment in a line: EMSA. The following applies: 20 uM cAMP; EMSA: 100 ng DNA in 1x TBE, 20 uL, 45 min at room temperature, 12% native PAGE, PargS competitor, 20 uM cAMP for CRP; recombinant protein; residues 1-210; protein details: C-terminal His6; probe letters rebuilt from the primers and the genome. For orientation: In EMSA bound probe runs differently from free probe, usually more slowly.

Series [3] deals with T1, H-NS (Salmonella enterica serovar Typhimurium ATCC 14028). The experiment in a line: EMSA. The following applies: EMSA: 100 ng DNA in 1x TBE, 20 uL, 45 min at room temperature, 12% native PAGE, PargS competitor, 20 uM cAMP for CRP; recombinant protein; residues 1-137; probe letters rebuilt from the primers and the genome.

For part of these data: Where a protein sequence is shown, tags need not be part of it. For part of these data: For at least one entry, the source does not settle the construct or the ends of the probe. For part of these data: At least one verdict was read from the data and is not stated in words by the source.

As to “CTTATGTCGGTCATTGCCGTAGCGCTGCCGACGATCTTATAGCTATTGAGAACTCTCGTTTCACAACCTATGTTTTAATTTCAAAACGATCAATAATGAAACTTATGTTTTGTTATGGGTATCACATTTCGAATTTCATAATCCTGGCGTTTTTTATCGTT (double strand) [PiolT1 SPR]”, in series [1], the binding result was “binds”.
Consider “CGGATCCGTTTAGACATGCATGATACTCTAATAGAACGAAAATTTCGTAAATAACCATATTAGCACAAATGAACTGAACATACAGTTAACAACATTCAAATTGCGCTGTGGTTACCTTCAGTACAGAATTTGCTGGCGGGCTGGGTTCTGAGCAATCTGAATCTGACCGCATAAATGCGACAGGATCAGCATTGTTATGACTGGACGATGCCCGCAGCCAGGCGGCATCGCAAACGTTGAAAGGCAGAAGATGACGTTTATAAATCACGAAACCTTCATCTGTTATTGCGAACTGGCTCTTTTCGTGAATTCC (double strand) [PiolR (CRP) EMSA]”, for which the binding result in series [2] is on record as “binds”.
Still for that read-out and setting: then “GTTGGCTTTAGCAACCTTAGTCATTTTCAGAATTACTTCAAAAATAAAGTAGGGAAAACGCCCGGTCAATATCGCAAGGACTATCGTAAAGCTAATTATTTATTATTTGAATATTAATGCTTGCTAAAATTTAATCGTCATGAGAATGGTCGCAATACTGCGGCCATTTTTTATTTGTCGGTATATTTTATGCGTTTATCTATAGCGCGAAAAGTCTGGCAATATCATTAAAGAGTGATGATTTTTTTGTGATACCTGACGCATTTATCCCACTTCTTCAACCAGGATAGATAAAGTTTTTCAGGCTACAAAAAGTAATATGTTGTCCATCAAAGGTTAATTTGCATCGCGGTATGCAGTAAAAGCGTTTCATTAAGTGGGAGCC (double strand) [PiolE EMSA]”, with “binds”.
As for “CCATTGATGACACACCAAATAAAAACGATAAAAATCAATAAGTTAATTATATTTTTGATTTCTTGCTGCACATACCATCGTATAAAAATCAGCCGTCAAACTTTCAAAATAAAATTTCATAAAAATAAATTTGAAATTTTTAATCCTAAAATTTACATTGAATACGGTATGCGTTTTAGGCTGAAGATAACCAGGCTTTCCTGTGACCGCTCAGTCAGAACGTCGTCAACATCGGTTTAAGAGGATAAAAAAGAGATGGAAACAGTCGGCAATTTTATTCATGGTAAAACGACACTGAGCAGCAGCGGCGAGACGCTACCGGTGACTAATCCGG (double strand) [PiolA EMSA]”, the binding result in series [2] and in series [3] was “binds” in each case.
“CTTCAGCCTAAAACGCATACCGTATTCAATGTAAATTTTAGGATTAAAAATTTCAAATTTATTTTTATGAAATTTTATTTTGAAAGTTTGACGGCTGATTTTTATACGATGGTATGTGCAGCAAGAAATCAAAAATATAATTAACTTATTGATTTTTATCGTTTTTATTTGGTGTGTCATCAATGGTTGTCTGTTGTGACGAGGAAAGATTTGGAAAAAATTATGATCTATATAGCATTTTTGTTTCATTTGGTGTGGTATAAAAATTCAAATTTCAGGGGGGTTTCGGCACCACAGTTTCGGATATTGGAGGGTAAATCATGCGCTTGTGCTTCTGTCCTTCAGAACGAGAGAATAAGGCTCA (double strand) [PreiD EMSA]”: the binding result in series [2] and in series [3] was “binds” in each case.
With “GGAATTCTCTCGTTTCACAACCTATGTTTTAATTTCAAAACGATCAATAATGAAACTTATGTTTTGTTATGGGTATCACATTTCGAATTTCATAATCCTGGCGTTTTTTATCGTTAAGATGCTGCGTTTTACGCAGTGCTCTCCTCTATCTTGATGAAGTTACTTGATTTTATTGATTTCGCGACAGTACCTGAACTCAATTTGTCAGGGGCCGTACTTTTTGTTCTTTCCTGGAACATCTCCATTTCGTGATCTTTTGCATGGAATTTTTCTTCTAATGAATGCAAAAATAAAATGAAAAATTTCATTGGTGTGTTGTTTCCTCAACAGGCAAGGGAGGGATTATGTCTCAGAGGATCCG (double strand) [PiolT2 EMSA]”, the binding result in series [2] and in series [3] was “binds” in each case.
